A mixed list of measured activities; the numbers were collected in NIAID ChemDB.

Common to all: growth or infection tests; agent: Cryptococcus neoformans; endpoint: MFC

Neighbouring rows are from separate reports.

{"smiles": "C[C@@H]1CCC2(OC1)OC1CC3C4C[C@H](O)[C@H]5C[C@@H](O)CC[C@]5(C)C4CC(=O)[C@]3(C)C1[C@@H]2C", "strain or isolate": "ATCC 90113", "result": "10 µg/mL"}
{"smiles": "COc1ccccc1CN(Cc1ccc(-c2ccccc2)cc1)n1ccnc1", "result": "5.5 µM"}
{"smiles": "CC(C)N=C(N)c1ccc2nc(-c3ccc(CCc4ccc(-c5nc6ccc(C(N)=NC(C)C)cc6[nH]5)cc4)cc3)[nH]c2c1", "strain or isolate": "114.95", "result": "0.39 µg/mL"}
{"smiles": "CCCCn1nc(C)c(N=O)c1-c1cc(C)on1", "result": "2.4 µM"}
{"smiles": "N=C(N)c1ccc2nc(-c3cccc(-c4nc5ccc(C(=N)N)cc5[nH]4)n3)[nH]c2c1", "strain or isolate": "H99", "result": ">100 µg/mL"}
{"smiles": "COC1CC2CCC(C)C(O)(O2)C(=O)C(=O)N2CCCCC2C(=O)OC(C(C)CC2CCC(O)C(OC)C2)CC(=O)C(C)/C=C(\\C)[C@@](O)(c2ccc(C)s2)C(OC)C(=O)C(C)CC(C)/C=C/C=C/C=C/1C", "strain or isolate": "FRR1", "result": ">100 µg/mL"}
{"smiles": "Cc1cc(-c2cc(C)n(C)n2)no1", "result": ">200 µM"}
{"smiles": "Clc1ccc(CC(Cc2ccc(-c3ccccc3)cc2)n2ccnc2)cc1", "result": "33 µM"}
{"smiles": "c1ccc(CN(Cc2ccc(-c3ccccc3)cc2)n2ccnc2)cc1", "result": "200 µM"}
{"smiles": "CCCCn1nc(-c2cc(C)on2)c(N=O)c1C", "result": "9 µM"}
{"smiles": "CC(C)(C)c1ccc(CC(Cc2ccc(-c3ccccc3)cc2)n2ccnc2)cc1", "result": "33 µM"}
{"smiles": "C[C@@H](n1cnc2cc(Cl)ccc2c1=O)[C@](O)(Cn1cncn1)c1ccc(F)cc1F", "strain or isolate": "Isolate 123.96", "result": "20 µg/mL"}
{"smiles": "Cc1ccccc1CN(Cc1ccc(-c2ccccc2)cc1)n1ccnc1", "result": "5.5 µM"}
{"smiles": "COc1c(O)c2c(=O)cc(OC)c3c4c(OC)cc(=O)c5c(O)c(OC)c6c(c(c1CC(C)(O)C6C(C)=O)c23)c54", "result": ">100 µg/mL"}
{"smiles": "N=C(N)c1ccc(NCCCNc2ccc(C(=N)N)cc2[N+](=O)[O-])c([N+](=O)[O-])c1", "strain or isolate": "119.95", "result": "6.25 µg/mL"}
{"smiles": "NCCNC(=O)C1=Nc2ccc(NC(=O)C3=Nc4ccc(C(=O)Nc5ccc6[nH]c(C(=O)NCCN)cc6c5)cc4C3)cc2C1", "strain or isolate": "Serotype C", "result": "2 µg/mL"}
{"smiles": "COC(/C=C/c1ccccc1)=C1/C(=O)C=C(C)C1=O", "strain or isolate": "ATCC 90113", "result": "6.25 µg/mL"}
{"smiles": "N=C(N)c1ccc(OCCCC(O)COc2ccc(C(=N)N)cc2)cc1", "strain or isolate": "167.95", "result": "0.78 µg/mL"}
{"smiles": "Clc1ccc(COC(Cn2ccnc2)c2ccc(Cl)cc2Cl)c(Cl)c1", "result": "0.9 µM"}
{"smiles": "CC(C)N=C(N)c1ccc2nc(-c3ccc4c(c3)Cc3cc(-c5nc6ccc(C(N)=NC(C)C)cc6[nH]5)ccc3-4)[nH]c2c1", "strain or isolate": "H99", "result": "0.78 µg/mL"}
{"smiles": "c1ccc(CC(Cc2ccc(-c3ccccc3)cc2)n2ccnc2)cc1", "result": "5.5 µM"}
{"smiles": "Clc1ccc(CN(Cc2ccc(-c3ccccc3)cc2)n2ccnc2)c(Cl)c1", "result": "7.4 µM"}
{"smiles": "C[C@@H](n1ncn(-c2ccc(OCC(F)(F)C(F)F)cc2)c1=O)[C@](O)(Cn1cncn1)c1ccc(F)cc1F", "strain or isolate": "DUMC 251.86", "result": ">16 µg/mL"}
{"smiles": "CCc1cc(C(C)(C)C)nc2c(NC(C)CCCN)cc(OC)c(Oc3cccc(C(F)(F)F)c3)c12", "result": "10 µg/mL"}
{"smiles": "COC1CC2CCC(C)C(O)(O2)C(=O)C(=O)N2CCCCC2C(=O)OC(C(C)CC2CCC(O)C(OC)C2)CC(=O)C(C)/C=C(\\C)C(O)C(OC)C(=O)C(C)C[C@](C)(N(O)C(=O)NN2CCCCC2)/C=C/C=C/C=C/1C", "strain or isolate": "FRR1", "result": ">100 µg/mL"}
{"smiles": "Cc1ccccc1CC(Cc1ccc(-c2ccccc2)cc1)n1ccnc1", "result": "33 µM"}

The last 3 rows once more:

CCc1cc(C(C)(C)C)nc2c(NC(C)CCCN)cc(OC)c(Oc3cccc(C(F)(F)F)c3)c12 ; result: 10 µg/mL
COC1CC2CCC(C)C(O)(O2)C(=O)C(=O)N2CCCCC2C(=O)OC(C(C)CC2CCC(O)C(OC)C2)CC(=O)C(C)/C=C(\C)C(O)C(OC)C(=O)C(C)C[C@](C)(N(O)C(=O)NN2CCCCC2)/C=C/C=C/C=C/1C ; strain or isolate: FRR1 ; result: >100 µg/mL
Cc1ccccc1CC(Cc1ccc(-c2ccccc2)cc1)n1ccnc1 ; result: 33 µM